{"source": "PubChem BioAssay AID624099, ICCB-Longwood – 2012", "assay": "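Human genes that papillomavirus E2 requires to repress the HPV18 LCR promoter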 (primary screen)", "cell system": "human C33A cervical carcinoma cells (HPV-negative) stably expressing BPV1 E2 and an HPV18 LCR luciferase reporter", "reagents": "siRNA pool against human genes, 40 nM", "duration": "72 h", "detection": "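HPV18 LCR reporter light per well, converted to plate-wise z-scores that exclude control wells, and averaged over triplicate plates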", "scale": "mean z-score and z-score: higher = stronger reporter signal, weaker E2 silencing", "call rule": "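Hit if mean z-score reaches 2 and two or more of three replicate z-scores also reach 2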", "note": "The deposit covers about 21,000 reagents; shown is a part drawn at random. 497 of all reagents (2.4%) count as active. 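Higher z means weaker E2 silencing; only reporter increases were scored, and knock-downs that hurt cell survival may mask genuine repressor factors.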 Reagents against one gene are numbered here."}
{"target gene": "LOC389659 (retired record)", "reagent no.": 1, "mean z-score": 0.74, "z-score, replicate A": 0.77, "z-score, replicate B": 0.61, "z-score, replicate C": 0.83, "call": "inactive"}
{"target gene": "DMC1", "reagent no.": 1, "mean z-score": -0.61, "z-score, replicate A": -0.2, "z-score, replicate B": -0.88, "z-score, replicate C": -0.75, "call": "inactive"}
{"target gene": "RNF112", "reagent no.": 1, "mean z-score": 0.16, "z-score, replicate A": 0.01, "z-score, replicate B": 0.3, "z-score, replicate C": 0.16, "call": "inactive"}
{"target gene": "CCDC25", "reagent no.": 1, "mean z-score": -1.35, "z-score, replicate A": -1.44, "z-score, replicate B": -1.19, "z-score, replicate C": -1.4, "call": "inactive"}
{"target gene": "CAPNS1", "reagent no.": 1, "mean z-score": 0.58, "z-score, replicate A": 0.36, "z-score, replicate B": 0.87, "z-score, replicate C": 0.49, "call": "inactive"}
{"target gene": "DST", "reagent no.": 1, "mean z-score": 0.43, "z-score, replicate A": 0.3, "z-score, replicate B": 0.56, "z-score, replicate C": 0.43, "call": "inactive"}
{"target gene": "AADACL2", "reagent no.": 1, "mean z-score": -1.08, "z-score, replicate A": -1.04, "z-score, replicate B": -1.37, "z-score, replicate C": -0.83, "call": "inactive"}
{"target gene": "SLC12A8", "reagent no.": 1, "mean z-score": -1.08, "z-score, replicate A": -1.18, "z-score, replicate B": -0.93, "z-score, replicate C": -1.13, "call": "inactive"}
{"target gene": "GJB2", "reagent no.": 1, "mean z-score": -0.83, "z-score, replicate A": -0.92, "z-score, replicate B": -0.71, "z-score, replicate C": -0.84, "call": "inactive"}
{"target gene": "ZNF398", "reagent no.": 1, "mean z-score": -0.91, "z-score, replicate A": -1.27, "z-score, replicate B": -0.64, "z-score, replicate C": -0.83, "call": "inactive"}
{"target gene": "LINC03033", "reagent no.": 1, "mean z-score": 0.46, "z-score, replicate A": 0.78, "z-score, replicate B": 0.39, "z-score, replicate C": 0.22, "call": "inactive"}
{"target gene": "LINC03033", "reagent no.": 2, "mean z-score": 0.47, "z-score, replicate A": 0.63, "z-score, replicate B": 0.34, "z-score, replicate C": 0.44, "call": "inactive"}
{"target gene": "FGFR2", "reagent no.": 1, "mean z-score": -0.62, "z-score, replicate A": -0.06, "z-score, replicate B": -0.84, "z-score, replicate C": -0.95, "call": "inactive"}
{"target gene": "SLC5A3", "reagent no.": 1, "mean z-score": -0.73, "z-score, replicate A": -0.53, "z-score, replicate B": -0.95, "z-score, replicate C": -0.71, "call": "inactive"}
{"target gene": "ARAP1", "reagent no.": 1, "mean z-score": 0.79, "z-score, replicate A": 0.94, "z-score, replicate B": 1.04, "z-score, replicate C": 0.38, "call": "inactive"}
{"target gene": "PSMD5", "reagent no.": 1, "mean z-score": -0.25, "z-score, replicate A": -0.2, "z-score, replicate B": -0.32, "z-score, replicate C": -0.23, "call": "inactive"}
{"target gene": "MIF", "reagent no.": 1, "mean z-score": -0.04, "z-score, replicate A": -0.09, "z-score, replicate B": 0.03, "z-score, replicate C": -0.05, "call": "inactive"}
{"target gene": "NSG2", "reagent no.": 1, "mean z-score": 0.78, "z-score, replicate A": 0.49, "z-score, replicate B": 0.81, "z-score, replicate C": 1.04, "call": "inactive"}
{"target gene": "TIPIN", "reagent no.": 1, "mean z-score": -0.16, "z-score, replicate A": -0.44, "z-score, replicate B": -0.09, "z-score, replicate C": 0.03, "call": "inactive"}
{"target gene": "LOC441165 (retired record)", "reagent no.": 1, "mean z-score": -0.16, "z-score, replicate A": 0.14, "z-score, replicate B": -0.03, "z-score, replicate C": -0.58, "call": "inactive"}
{"target gene": "RIPOR1", "reagent no.": 1, "mean z-score": 2.8, "z-score, replicate A": 3.03, "z-score, replicate B": 2.49, "z-score, replicate C": 2.87, "call": "active"}

Part of the list above, reformatted:
target gene	reagent no.	mean z-score	z-score, replicate A	z-score, replicate B	z-score, replicate C	call
ZNF398	1	-0.91	-1.27	-0.64	-0.83	inactive
LINC03033	1	0.46	0.78	0.39	0.22	inactive
LINC03033	2	0.47	0.63	0.34	0.44	inactive
